The experiment relates to mammalian cell viability, cytotoxicity counter-screen. Kind of experiment: mammalian cell cytotoxicity, dose response, cytotoxicity control for M. tuberculosis inhibitor project (AID 435019).

Broadly, the CC50 is the concentration giving 50% cytotoxicity. In the case of `O=[N+]([O-])c1cc([N+](=O)[O-])c(-c2cnn(-c3ccccc3)c2)c([N+](=O)[O-])c1`, the CC50 is 22.6 µM.

The values above are taken from PubChem BioAssay AID435019 (Southern Research Specialized Biocontainment Screening …, 2010).
